Experimental data reported in US11083707B2, “Substituted indoline derivatives as dengue viral replication inhibitors” (JANSSEN PHARMACEUTICALS, INC., priority 2017, dated 2021).

Key:
Format in all cases: cell-based, Dengue virus
DENV-4 strain H241 = assay: Tetravalent RT-qPCR assay Protocol A, serotype 4; details: RT-qPCR serotype 4 H241
Description: (§1) The antiviral activity of the compounds of the invention was tested against DENV-1 strain TC974#666 (NCPV), DENV-2 strain 16681, DENV-3 strain H87 (NCPV) and DENV-4 strain H241 (NCPV) in a RT-qPCR assay. Therefore, Vero cells were infected with either DENV-1, or -2, or -3, or -4 in the presence or absence of test compounds. At day 3 post-infection, the cells were lysed and cell lysates were used to prepare cDNA of both a viral target (the 3′UTR of DENV; Table 2) and a cellular reference gene (β-actin, Table 2). Subsequently, a duplex real time PCR was performed on a Lightcycler480 instrument. The generated Cp value is inversely proportional to the amount of RNA expression of these targets. Inhibition of DENV replication by a test compound results in a shift of Cp's for the 3′UTR gene. On the other hand, if a test compound is toxic to the cells, a similar effect on β-actin expression will be observed. The comparative ΔΔCp method is used to calculate EC50, which is based on the relative gene expression of the target gene (3′UTR) normalized with the cellular housekeeping gene (β-actin). In addition, CC50 values are determined based on the Cp values acquired for the housekeeping gene β-actin.
(§2) The culture medium consisted of minimal essential medium supplemented with 2% of heat-inactivated fetal calf serum, 0.04% gentamycin (50 mg/mL) and 2 mM of L-glutamine. Vero cells, obtained from ECACC, were suspended in culture medium and 75 μL/well was added in 96-well plates (10000 cells/well), which already contain the antiviral compounds. […] In addition, each plate contains wells which are assigned as virus controls (containing cells and virus in the absence of compound) and cell controls (containing cells in the absence of virus and compound). Once the cells were added in the plates, the plates were incubated in a fully humidified incubator (37° C., 5% CO2) until the next day. Dengue viruses serotype-1, 2, 3 and 4 were diluted in order to obtain a Cp of ˜22-24 in the assay. Therefore, 25 μL of virus suspension was added to all the wells containing test compound and to the wells assigned as virus control. In parallel, 25 μL of culture medium was added to the cell controls. Next, the plates were incubated for 3 days in a fully humidified incubator (37° C., 5% CO2). After 3 days, the supernatant was removed from the wells and the cells were washed twice with ice-cold PBS (˜100 μL). The cell pellets within the 96-well plates were stored at −80° C. for at least 1 day. Next, RNA was extracted using the Cells-to-CT™ lysis kit, according to the manufacturer's guideline (Life Technologies). The cell lysates can be stored at −80° C. or immediately used in the reverse transcription step.
(§3) In preparation of the reverse transcription step, mix A (table 3A) was prepared and 7.57 μL/well was dispensed in a 96-well plate. After addition of 5 μL of the cell lysates, a five minute denaturation step at 75° C. was performed (table 3B). Afterwards, 7.43 μL of mix B was added (table 3C) and the reverse transcription step was initiated (table 3D) to generate cDNA.
(§4) Finally, a RT-qPCR mix was prepared, mix C (table 4A), and 22.02 μL/well was dispensed in 96-well LightCycler qPCR plates to which 3 μL of cDNA was added and the qPCR was performed according to the conditions in table 4B on a LightCycler 480.
(§5) Using the LightCycler software and an in-house LIMS system, dose response curves for each compound were calculated and the half maximal effective concentration (EC50) and the half maximal cytotoxic concentration (CC50) were determined (Tables 5-8).

DENV-1 strain TC974#666 = assay: Tetravalent RT-qPCR assay Protocol A, serotype 1; details: RT-qPCR serotype 1 TC974#666
Description: as §1, §2, §3, §4, §5

DENV-3 strain H87 = assay: Tetravalent RT-qPCR assay Protocol A, serotype 3; details: RT-qPCR serotype 3 H87
Description: as §1, §2, §3, §4, §5

DENV-2 strain 16681 = assay: Tetravalent RT-qPCR assay Protocol A, serotype 2; details: RT-qPCR serotype 2 16681
Description: as §1, §2, §3, §4, §5

DENV-2 16681 strain = assay: DENV-2 antiviral assay (eGFP fluorescence, Vero cells); details: SI=CC50/EC50, DENV-2 antiviral assay
Description: The antiviral activity of all the compounds of the invention was tested against the DENV-2 16681 strain which was labeled with enhanced green fluorescent protein (eGPF). The culture medium consists of minimal essential medium supplemented with 2% of heat-inactivated fetal calf serum, 0.04% gentamycin (50 mg/mL) and 2 mM of L-glutamine. Vero cells, obtained from ECACC, were suspended in culture medium and 25 μL was added to 384-well plates (2500 cells/well), which already contain the antiviral compounds. Typically, these plates contain a 5-fold serial dilution of 9 dilution steps of the test compound at 200 times the final concentration in 100% DMSO (200 nL). […] Finally, each plate contains wells which are assigned as virus controls (containing cells and virus in the absence of compound), cell controls (containing cells in the absence of virus and compound) and medium controls (containing medium in the absence of cells, virus and compounds). To the wells assigned as medium control, 25 μL of culture medium was added instead of Vero cells. Once the cells were added to the plates, the plates were incubated for 30 minutes at room temperature to allow the cells to distribute evenly within the wells. Next, the plates were incubated in a fully humidified incubator (37° C., 5% CO2) until the next day. Then, DENV-2 strain 16681, labeled with eGFP, was added at a multiplicity of infection (MOI) of 0.5. Therefore, 15 μL of virus suspension was added to all the wells containing test compound and to the wells assigned as virus control. In parallel, 15 μL of culture medium was added to the medium and cell controls. Next, the plates were incubated for 3 days in a fully humidified incubator (37° C., 5% CO2). At the day of the read out, the eGFP fluorescence was measured using an automated fluorescence microscope at 488 nm (blue laser). Using an in-house LIMS system, inhibition dose response curves for each compound were calculated and the half maximal effective concentration (EC50) was determined. Therefore, the percent inhibition (I) for every test concentration is calculated using the following formula: I=100*(ST-SCC)/(SVC-SCC), ST, SCC and SVC are the amount of eGFP signal in the test compound, cell control and virus control wells, respectively. The EC50 represents the concentration of a compound at which the virus replication is inhibited with 50%, as measured by a 50% reduction of the eGFP fluorescent intensity compared to the virus control. The EC50 is calculated using linear interpolation (Table 1).

SMILES	SI (DENV-4 strain H241)	SI (DENV-1 strain TC974#666)	SI (DENV-3 strain H87)	SI (DENV-2 strain 16681)	SI (DENV-2 16681 strain)
COc1cc(NC(C(=O)N2CCc3ccc(OC(F)(F)F)cc32)c2ccc(Cl)cc2OCCC(C)(C)C(=O)O)cc(-n2cncn2)c1 (single isomer, unassigned) [Compound 14B]	61	8720	>644	>9320	35500
COc1cc(NC(C(=O)N2CCc3cc(F)c(OC(F)(F)F)cc32)c2ccc(Cl)cc2OCCCC(=O)O)cc(-n2cncn2)c1 (single isomer, unassigned) [Compound 15B]	174	46500	3130	>22600	94800
COc1cc(NC(C(=O)N2CCc3c(C)cc(OC(F)(F)F)cc32)c2ccc(Cl)cc2OCCCC(=O)O)cc(-n2cncn2)c1 (single isomer, unassigned) [Compound 16B]	181	>23100	>1780	>44200	>174673
